Anti-infective test results gathered from many reports (values: NIAID ChemDB through PubChem).

Shared fields: whole-cell or culture tests; agent: Human cytomegalovirus

ECn is the concentration giving n% inhibition of infection, replication or growth.

SMILES | endpoint | strain or isolate | read by | cells | result
CCCCCCCCCCCCCCCCCCOCCOP(=O)(O)CO[C@H](CO)Cn1ccc(N)nc1=O | EC50 | AD169 |  | MRC-5 | 0.00002 µM
Nc1ccn(C[C@@H](CO)OCP(=O)(O)O)c(=O)n1.O=C(O)P(=O)(O)O | EC75 | AD169 (ganciclovir foscarnet-susceptible) | plaque count | MRC-5 | 0.94 µM
Nc1ncnc2c1ncn2C=C1CC1CO | EC90 | VR4991 (ganciclovir-resistant) | plaque count |  | 4.9 µM
Nc1ccn(C[C@H]2COP(=O)(O)CO2)c(=O)n1 | EC50 | Towne (ganciclovir- foscarnet-susceptible) | plaque count | MRC-5 | 0.66 µM
O=C1c2cccc([N+](=O)[O-])c2C(=O)N1C12CC3CC(CC(C3)C1)C2 | EC50 | AD169 | plaque count | HEL | >20 µg/mL
OC[C@H]1O[C@@H](n2c(Br)nc3cc(Cl)c(Cl)cc32)[C@H](O)[C@@H]1O | EC90 | C4 (BDCRB-resistant) | virus yield | HFF | 23 µM
CCCCCCCCCCCCOCCCOP(=O)(O)CO[C@H](CO)Cn1ccc(N)nc1=O | EC50 | GDGrP53 | plaque count | HFF | 0.1 µM
Nc1nc2c(ncn2COC(CO)CO)c(=O)[nH]1 | EC50 | C9208/3-3-1 | plaque count | HFF | 2.2 µM
Nc1ccn(C[C@@H](CO)OCP(=O)(O)O)c(=O)n1 | EC50 | AD169 | plaque count | HS68 | 0.02 µg/mL
Nc1ccn(C[C@@H](CO)OCP(=O)(O)O)c(=O)n1 | EC50 | Clinical isolates | plaque count | HEL | 0.25 µM
O=C(NCCc1ccccc1)C1=Cc2ccncc2CC1 | EC50 | AD169 | plaque count | MRC-5 | 13.6 µM
OC[C@H]1O[C@@H](n2c(Br)nc3cc(Cl)c(Cl)cc32)[C@H](O)[C@@H]1O | EC50 | C9208/3-3-1 | plaque count | HFF | 0.8 µM
CC(C)Oc1ccccc1CNC(=O)c1ccc2cnccc2n1 | EC50 | 1117R73-1-2 | plaque count | HFF | 0.04 µM
Nc1nc2c(ncn2C=C2CC2CO)c(=O)[nH]1 | EC50 | DAVIS | plaque count | HFF | 2.5 µM
Nc1nc2c(ncn2[C@@H]2C[C@H](CO)[C@H]2CO)c(=O)[nH]1 | EC75 | PC92 (ganciclovir- foscarnet-susceptible) | plaque count | MRC-5 | 6.39 µM
O=C1CCCC(C23CC4CC(C2)CC(N2C(=O)c5ccccc5C2=O)(C4)C3)C1 | EC50 | AD169 | plaque count | HEL | >4 µg/mL
O=C(NCc1ccc(Cl)cc1)c1c[nH]c2c(F)cccc2c1=O | EC50 | GRU | plaque count |  | 4.9 µM
CC(C)Nc1nc2cc(Cl)c(Cl)cc2n1[C@H]1O[C@@H](CO)[C@H](O)[C@@H]1O | EC50 | AD169 | virus yield | HFF | 0.19 µM
CCCCCCCC/C=C\CCCCCCCOCCCOP(=O)(O)CO[C@H](CO)Cn1ccc(N)nc1=O | EC50 | GDGrP53 | plaque count | HFF | 0.03 µM
Nc1nc2c(ncn2COC(CO)CO)c(=O)[nH]1 | EC50 | AD169 | virus yield | HFF | 1.2 µM
COc1cccc(N2CCN(C3=Nc4c(F)cccc4[C@H](CC(=O)O)N3c3cc(C(F)(F)F)ccc3OC)CC2)c1 | EC50 | Clinical isolate 12 | plaque count |  | 0.0022 µM
Nc1ncnc2c1ncn2/C=C1/C[C@@H]1CO | EC50 | AD169 | plaque count | HFF | 1.9 µM
COc1ccccc1CNC(=O)C1=Cc2ccncc2CC1 | EC50 | AD169 | plaque count | MRC-5 | 15.5 µM
OC[C@H]1O[C@@H](n2c(Br)nc3cc(Cl)c(Cl)cc32)[C@H](O)[C@@H]1O | EC50 | AD169 | plaque count |  | 0.58 µM
O[C@@H]1[C@H](O)[C@H](O)CO[C@H]1n1c(Br)nc2cc(Cl)c(Cl)cc21 | EC50 | C8805/37-1-1 (drug-resistant) | plaque count | HFF | 2.8 µM
OC[C@@H]1O[C@@H](n2c(Cl)nc3cc(Cl)c(Cl)cc32)[C@H](O)[C@@H]1O | EC50 | TOWNE | virus yield | HFF | <5.8 µM
CCCCCCCCCCCCCCCCOCCCOP(=O)(O)CO[C@H](CO)Cn1ccc(N)nc1=O | EC50 | C8805/37-1-1 (drug-resistant mutant) | plaque count | MRC-5 | 0.00095 µM
Nc1ccn(C[C@@H](CO)OCP(=O)(O)O)c(=O)n1 | EC50 | DAVIS | plaque count | HFF | 0.4 µM
NC(=O)c1c(Cl)c(-c2cccnc2)n2c1CCCC2 | EC50 | DER521 (ganciclovir cidofovir-resistant) | plaque count | HEL | 0.0181 µM
Nc1ccn(C[C@H]2COP(=O)(O)CO2)c(=O)n1 | EC50 | C9209/1-4-4 drug-resistant mutant | plaque count | MRC-5 | 1.95 µM
CCCCCCCC/C=C\CCCCCCCCOCCOP(=O)(O)CO[C@H](CO)Cn1ccc(N)nc1=O | EC50 | Coffman | plaque count | HFF | 0.01 µM
CC(C)Nc1nc2cc(Cl)c(Cl)cc2n1[C@H]1O[C@@H](CO)[C@H](O)[C@@H]1O | EC50 | C8910 | plaque count | MRC-5 | 0.19 µM
O=C(NCc1ccc(Cl)cc1)c1c[nH]c2ccc(C#CCO)cc2c1=O | EC90 | 759rD100 | plaque count |  | 1.8 µM
CC(C)Nc1nc2cc(Cl)c(Cl)cc2n1[C@H]1O[C@@H](CO)[C@H](O)[C@@H]1O | EC50 | TOWNE | virus yield | HFF | <0.3 µM
Nc1nc2c(ncn2COC(CO)CO)c(=O)[nH]1 | EC50 | D10 (D341E) | virus yield |  | <3.4 µM
O=C(NCc1ccc(Cl)cc1)c1c[nH]c2c(F)cc(CCCO)cc2c1=O | EC90 | GDGrP53 | plaque count |  | 2.9 µM
O=C1c2ccccc2[C@@]2(O)C3C4C[C@H]5CC(C[C@H]3C5)C4N12 | EC50 | DAVIS | plaque count | HEL | 10 µg/mL
Nc1nc(NC2CC2)c2ncn(C=C3CC3CO)c2n1 | EC50 | C8708/17-1-1 | plaque count | HFF | 4.4 µM
O=C1c2ccccc2C(=O)N1CCC1C2CC3CC(C2)CC1C3 | EC50 | AD169 | plaque count | HEL | >100 µg/mL
Nc1nc2c(ncn2COC(CO)CO)c(=O)[nH]1 | EC50 | C9213 | plaque count | MRC-5 | 7 µM
Nc1nc2c(ncn2[C@@H]2C[C@H](CO)[C@H]2CO)c(=O)[nH]1.O=C(O)P(=O)(O)O | EC75 | PC92 (ganciclovir- foscarnet-susceptible) | plaque count | MRC-5 | 1.2 µM
Nc1nc2c(ncn2C[C@@H]2CC[C@@H](P(=O)(O)O)O2)c(=O)[nH]1 | EC50 | AD169 | plaque count | HFF | 0.08 µg/mL

The first 6 rows once more:

SMILES	endpoint	strain or isolate	read by	cells	result
CCCCCCCCCCCCCCCCCCOCCOP(=O)(O)CO[C@H](CO)Cn1ccc(N)nc1=O	EC50	AD169		MRC-5	0.00002 µM
Nc1ccn(C[C@@H](CO)OCP(=O)(O)O)c(=O)n1.O=C(O)P(=O)(O)O	EC75	AD169 (ganciclovir foscarnet-susceptible)	plaque count	MRC-5	0.94 µM
Nc1ncnc2c1ncn2C=C1CC1CO	EC90	VR4991 (ganciclovir-resistant)	plaque count		4.9 µM
Nc1ccn(C[C@H]2COP(=O)(O)CO2)c(=O)n1	EC50	Towne (ganciclovir- foscarnet-susceptible)	plaque count	MRC-5	0.66 µM
O=C1c2cccc([N+](=O)[O-])c2C(=O)N1C12CC3CC(CC(C3)C1)C2	EC50	AD169	plaque count	HEL	>20 µg/mL
OC[C@H]1O[C@@H](n2c(Br)nc3cc(Cl)c(Cl)cc32)[C@H](O)[C@@H]1O	EC90	C4 (BDCRB-resistant)	virus yield	HFF	23 µM

Neighbouring rows are from separate reports. An empty or dashed field is not shown.